How the values were obtained:
C. albicans cells [1] = test: photosensitizer uptake by fluorescence spectrofluorimetry; format: cell-based; conditions: for uptake of photosensitizer, PS: PS alone, 10^8 CFU/ml, PDI concentrations; for uptake of photosensitizer, +A16 (1 hr): with 4 μg/ml A16, 1 hr; for uptake of photosensitizer, +A16 (24 hrs): with 4 μg/ml A16, 24 hrs
Method: In order to confirm that the increase in phototoxicity observed by combining the different PS with A16 is actually due to an increase of cellular uptake of the PS by the cells and to document that the antifungal efficacy of saponins against C. albicans is associated with increased permeability, the amount of dye within the cell was measured by fluorescence spectrofluorimetry.
Cell suspensions (10^8 cells/mL) were incubated in the dark as above using the same concentrations as for the PDI assays measured as μM PS equivalent (final concentration in incubation medium). Incubations were carried out in triplicate. Cell suspensions were centrifuged (12000 rpm, 1 min) and washed twice in 1 mL sterile PBS. The cell pellet was dissolved in 1.5 mL 0.1 M NaOH/1% SDS for 24 h to yield a homogenous solution. Uptake was determined by measurement of fluorescence in black 96-well flat-bottom plates (Costar) in a final volume of 200 μL using a Spectramax Gemini spectrofluorimeter (Molecular Devices) at 400 nmex/580-700 nmem for ce6, PEI-ce6 and 552 nmex/555-620 nmem for RB. Uptake values were obtained as previously described (Tegos et al., Antimicrob Agents Chemother, 50:196-203(2006)).
The cellular uptake of dye can be expressed as molecules per cell by correlation of the extracted PS concentration with the number of C. albicans cells present.

C. albicans cells [2] = test: confocal laser scanning microscopy of ce6 internalization; format: cell-based

SMILES | uptake of photosensitizer, PS (C. albicans cells [1]) [molecules/cell] | uptake of photosensitizer, +A16 (1 hr) (C. albicans cells [1]) [molecules/cell] | uptake of photosensitizer, +A16 (24 hrs) (C. albicans cells [1]) [molecules/cell] | internalization of ce6 into C. albicans cells (C. albicans cells [2]; ce6 alone, one hour incubation) | internalization of ce6 into C. albicans cells (C. albicans cells [2]; ce6 and A16, 24 hour incubation) | internalization of ce6 into C. albicans cells (C. albicans cells [2]; ce6 and A16 together, one hour)
O=C1OC2(c3cc(I)c(O)c(I)c3Oc3c2cc(I)c(O)c3I)c2c(Cl)c(Cl)c(Cl)c(Cl)c21 [RB, Rose Bengal] | 3.8 ± 0.6 | 4.55 ± 0.5 | 9.12 ± 0.22 | – | – | –
C=Cc1c(C)c2cc3nc(c(CC(=O)O)c4[nH]c(cc5nc(cc1[nH]2)C(C)=C5CC)c(C)c4C(=O)O)[C@@H](CCC(=O)O)[C@@H]3C [ce6, chlorin(e6)] | 0.81 ± 0.06 | 3.1 ± 0.25 | 9.1 ± 0.15 | no apparent internalization | dramatic increase in the concentration of ce6 inside the fungal cells | internalization of ce6 is visible
